# Tested on: Swiss Webster mice
# Experiment: Bioassay: intracranial injection into Swiss Webster mice (11 days old)
smiles,measurement,setting,value
NCC(=O)N[C@H]1CSSC[C@@H](C(N)=O)NC(=O)[C@H](Cc2c[nH]c3ccccc23)NC(=O)[C@@H]2CCCN2C(=O)[C@H](CCC(N)=O)NC(=O)[C@@H](Cc2c[nH]c3ccccc23)NC(=O)[C@@H]2C[C@@H](O)CN2C1=O,symptomatology after intracranial injection into mice,native peptide purified from venom,stiff-tail syndrome
same,symptomatology after intracranial injection into mice,"synthetic D-Trp-containing peptide, 15 nmol","stiff tail syndrome, paralysis of extremities, circular motion and barrel-rolling"
